The other results are listed elsewhere or left out. Env chains of viruses from a treatment-interruption trial, translated from the printed DNA. IC50 / IC80 of two broadly neutralizing antibodies; lower = more sensitive virus; >50 µg/ml means not reached and <0.001 µg/ml is below the lowest dose. No active / inactive call.
B1: HIV-1 Env, rebound clone, antibody arm (protein)
chain: MKVKVTMRNYQNLWRGGTLLLGMLMICSGAEQLWVTVYYGVPVWKEANTTLFCASDAKAYDTEVHNVWATHACVPTDPSPQEVVLENVTEDFNIWKNNMVEQMHEDIISLWDQSLKPCVKLTPLCVTLNCSNVNNQTGTNNNSSHGKDVEGEMKNCSFNVTTNIRDKIKREYALLYKLDIVPIDNDNTSYTLTSCNTSVITQACPKVSFEPIPIHYCAPAGFAILKCNNKTFNGKGPCTNVSTVQCTHGIRPVVSTQLLLNGSLAEDVVLRSENFTNNAKTIIVQLKEPVIINCTRPNNNTRKSIPMGPGRAWYTTGEIIGDIRQAHCNINKAQWNKTLQQVVTKLREQFGNKTIVFNQPTGGDPEIVMHSFNCGGEFFYCNTSKLFNSTWNNSTQGFNSTGESNTTITIQCTIKQIINMWQQVGKAMYAPPIAGQIKCSSNITGLLLTRDGGGNKTENETFRPAGGDMRDNWRSELYKYKVVQIKPLGIAPTKAKRRVVQREKRAVGIGALFLGFLGAAGSTMGAAAVTLTVQARQLLSGIVQQQNNLLRAIEAQQHMLQLTVWGIKQLQARVLAVERYLRDQQLLGIWGCSGKLICTTTVPWNNSWSNKSLDDIWGNMTWMEWEKEIDNYTYTIYKLIEESQNQQEKNEQELLELDKWANLWNWFDITNWLWYIKIFIIIVGGLIGLRIVFAVLSIVNRVRQGYSPLSLQTLLPAPRGPDRPGEIEEEGGERDKDTSVRLVNGFLAIIWDDLRSLCLFSYRHLRDLLLIVTRIVGLLGHRGWEVLRYWWNLLQYWIQELKNSAVSLLNVTAIAVAEGTERVIEIAQRACRAVLHIPRRIRQGLERGLL
B2: HIV-1 Env, rebound clone, antibody arm (protein)
chain: MKVKVTMRNYQNLWRGGTLLLGMLMICSGAEQLWVTVYYGVPVWKEANTTLFCASDAKAYDTEVHNVWATHACVPTDPSPQEVVLENVTEDFNIWKNNMVEQMHEDIISLWDQSLKPCVKLTPLCVTLNCSNVNNQTGTNNNSSHGKDVEGEMKNCSFNVTTNIRDKIKREYALLYKLDIVPIDNDNTSYTLTSCNTSVITQACPKVSFEPIPIHYCAPAGFAILKCNNKTFNGKGPCTNVSTVQCTHGIRPVVSTQLLLNGSLAEDVVLRSENFTHNAKTIIVQLKEPVIINCTRPNNNTRKSIPMGPGRAWYTTGEIIGDIRQAHCNINKAQWNKTLQQVVTKLREQFGNKTIVFNQPTGGDPEIVMHSFNCGGEFFYCNTSKLFNSTWNNSTQGFNSTGESNTTITIQCTIKQIINMWQQVGKAMYAPPIAGQIKCSSNITGLLLTRDGGGNKTENETFRPAGGDMRDNWRSELYKYKVVQIKPLGIAPTKAKRRVVQREKRAVGIGALFLGFLGAAGSTMGAAAVTLTVQARQLLSGIVQQQNNLLRAIEAQQHMLQLTVWGIKQLQARVLAVERYLRDQQLLGIWGCSGKLICTTTVPWNNSWSNKSLDDIWGNMTWMEWEKEIDNYTYTIYKLIEESQNQQEKNEQELLELDKWANLWNWFDITNWLWYIKIFIIIVGGLIGLRIVFAVLSIVNRVRQGYSPLSLQTLLPAPRGPDRPGEIEEEGGERDKDTSVRLVNGFLAIIWDDLRSLCLFSYRHLRDLLLIVTRIVGLLGHRGWEVLRYWWNLLQYWIQELKNSAVSLLNVTAIAVAEGTDRVIEIAQRACRAVLHIPRRIRQGLERGLL
B3: HIV-1 Env, rebound clone, antibody arm (protein)
chain: MKVKVTMRNYQNLWRGGTLLLGMLMICSGAEQLWVTVYYGVPVWKEANTTLFCASDAKAYDTEVHNVWATHACVPTDPSPQEVVLENVTEDFNIWKNNMVEQMHEDIISLWDQSLKPCVKLTPLCVTLNCSNVNNQTGTNNNSSHGKDVEGEMKNCSFNVTTNIRDKIKREYALLYKLDIVPIDNDNTSYTLTSCNTSVITQACPKVSFEPIPIHYCAPAGFAILKCNNKTFNGKGPCTNVSTVQCTHGIRPVVSTQLLLNGSLAEDVVLRSENFTNNAKTIIVQLKEPVIINCTRPNNNTRKSIPMGPGRAWYTTGEIIGDIRQAHCNINKAQWNKTLQQVVTKLREQFGNKTIVFNQPTGGDPEIVMHSFNCGGEFFYCNTSKLFNSTWNNSTQGFNSTGESNTTITIQCTIKQIINMWQQVGKAMYAPPIAGQIKCSSNITGLLLTRDGGGNKTENETFRPAGGNMRDNWRSELYKYKVVQIKPLGIAPTKAKRRVVQREKRAVGIGALFLGFLGAAGSTMGAAAVTLTVQARQLLSGIVQQQNNLLRAIEAQQHMLQLTVWGIKQLQARVLAVERYLRDQQLLGIWGCSGKLICTTTVPWNNSWSNKSLDDIWGNMTWMEWEKEIDNYTYTIYKLIEESQNQQEKNEQELLELDKWANLWNWFDITNWLWYIKIFIIIVGGLIGLRIVFAVLSIVNRVRQGYSPLSLQTLLPAPRGPDRPGEIEEEGGERDKDTSVRLVNGFLAIIWDDLRSLCLFSYRHLRDLLLIVTRIVGLLGHRGWEVLRYWWNLLQYWIQELKNSAVSLLNVTAIAVAEGTDRVIEIAQRACRAVLHIPRRIRQGLERGLL
B4: HIV-1 Env, rebound clone, antibody arm (protein)
chain: MKVKGTQRNWQPLWILILGLVIICRASDNLWVTVYYGVPVWEDADTPLFCASDAKAYKTEKHNVWATHACVPTDPNPQEIILQNVTETFNMWKNNMVEQMHEDIISLWDESLKPCVKLTPLCVTLNCTDANFTMTNNNTNKVEAKNCTFNITTEIRDKKKKEYALFYKLDVVQMDESSTNSSTNSGTYRLINCNVSTIKQACPKVSFEPIPIHYCAPAGFAILKCNDKEFNGTGECKNVSSVQCTHGIKPVVSTQLILNGSLAEKEIMIRSENITNNAKIIIVQLNETVKINCSRPNNNTRRSIHIGPGQAFYAFRDVIGDIRQAHCNVRRTEWSKTLNRVAIQLRKHFSTNTTITFASPLGGDLEITTHSFNCGGEFFYCNTSALFNSTWNSTSTWNSTTSSNFTKDITLQCRIKQIVNMWQKVGQAMYAPPIEGVIRCESNITGLLLTRDGGTNETCSHSPNETFRPGGGDMRDNWRSELYKYKIIKIKPLGIAPTRARRRVVQREKRAVGLGTFFLGFLGTAGSTMGAASITLTVQVRQLLSGIVQQQSNLLRAIDAQQHLLQLTVWGIKQLQARVLAVERYLKDQQLLGIWGCSGKLICTTNVPWNTSWSNKSYNEIWDNMTWIQWEREVSNYTQQIYSLIEQSQNQQEKNEQDLLALDKWASLWSWFDITSWLWYIKIFIMIVGGLIGLRIVFAVLSIVNRVRQGYSPLSFQTLTHHQREPDRPERIEEGGGEQDKDRSVRLVSGFLALAWDDLRSLCLFLYHRLRDFVLIATRTLELLGHSSLRGLRLGWEALKYLWNLLLYWGRELKNSAINLLDTIAVGVANWTDRVIEVAQRVGRAFLNIPRRIRQGSERALL

molecular target: antibody 10-1074; test: neutralization IC50; higher = virus less sensitive to the antibody
Description: (§1)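 Pseudovirus bearing the Env chain mixed with antibody, from 50 µg/ml in fivefold dilutions, on TZM-bl reporter cells, in duplicate.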

Binder	neutralization IC50
B1	> 50 µg/mL
B2	> 50 µg/mL
B3	> 50 µg/mL
B4	1.45 µg/mL

molecular target: antibody 3BNC117; test: as above
Description: as §1

Binder	neutralization IC50
B1	0.033 µg/mL
B2	0.045 µg/mL
B3	0.069 µg/mL
B4	0.034 µg/mL

molecular target: antibody 10-1074; test: neutralization IC80; higher = virus less sensitive to the antibody
Description: as §1

Binder	neutralization IC80
B1	> 50 µg/mL
B2	> 50 µg/mL
B3	> 50 µg/mL
B4	9.65 µg/mL

molecular target: antibody 3BNC117; test: as above
Description: as §1

Binder	neutralization IC80
B1	0.115 µg/mL
B2	0.186 µg/mL
B3	0.233 µg/mL
B4	0.135 µg/mL

From the supplement of paper PMC12637763
